Biological target: mα1β1δε nAChR (Mus musculus, UniProt P02716+P04756+P09690+P20782)
Experiment: Two-electrode voltage clamp, ACh-evoked current block, mα1β1δε nAChR in Xenopus oocytes

Sequences of proteins named here, by UniProt entry; tags and fusion partners are left off. A change or cut given only in a name is not applied to a line headed by its entry. Residues count along the entry.
UniProt P02716, 25-520 limits assumed: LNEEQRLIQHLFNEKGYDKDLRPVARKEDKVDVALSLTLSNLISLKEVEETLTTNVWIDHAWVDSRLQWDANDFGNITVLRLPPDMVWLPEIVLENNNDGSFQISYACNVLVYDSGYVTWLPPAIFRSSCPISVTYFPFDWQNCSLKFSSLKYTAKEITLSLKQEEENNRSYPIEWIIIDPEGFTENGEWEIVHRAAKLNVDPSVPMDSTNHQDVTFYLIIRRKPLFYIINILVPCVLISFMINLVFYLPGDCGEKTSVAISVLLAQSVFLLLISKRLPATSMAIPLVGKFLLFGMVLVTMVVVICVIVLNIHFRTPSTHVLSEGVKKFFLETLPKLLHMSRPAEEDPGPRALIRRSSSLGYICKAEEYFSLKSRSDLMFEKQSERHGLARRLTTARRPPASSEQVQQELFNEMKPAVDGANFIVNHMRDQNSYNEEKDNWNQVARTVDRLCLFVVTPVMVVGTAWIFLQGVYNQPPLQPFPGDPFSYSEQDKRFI
UniProt P09690, 24-501 partner limits assumed: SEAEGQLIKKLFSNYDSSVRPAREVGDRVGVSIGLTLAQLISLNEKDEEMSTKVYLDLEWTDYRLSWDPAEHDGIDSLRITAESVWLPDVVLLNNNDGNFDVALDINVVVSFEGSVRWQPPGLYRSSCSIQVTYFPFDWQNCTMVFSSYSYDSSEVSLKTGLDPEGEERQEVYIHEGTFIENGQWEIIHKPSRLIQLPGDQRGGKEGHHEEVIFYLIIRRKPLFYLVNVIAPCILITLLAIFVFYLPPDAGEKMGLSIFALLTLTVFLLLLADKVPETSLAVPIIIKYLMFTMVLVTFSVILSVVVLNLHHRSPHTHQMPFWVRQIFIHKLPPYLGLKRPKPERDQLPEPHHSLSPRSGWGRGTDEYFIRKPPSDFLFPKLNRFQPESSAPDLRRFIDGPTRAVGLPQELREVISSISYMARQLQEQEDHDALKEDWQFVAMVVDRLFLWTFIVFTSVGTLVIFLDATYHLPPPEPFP
UniProt P20782, 21-493 limits assumed: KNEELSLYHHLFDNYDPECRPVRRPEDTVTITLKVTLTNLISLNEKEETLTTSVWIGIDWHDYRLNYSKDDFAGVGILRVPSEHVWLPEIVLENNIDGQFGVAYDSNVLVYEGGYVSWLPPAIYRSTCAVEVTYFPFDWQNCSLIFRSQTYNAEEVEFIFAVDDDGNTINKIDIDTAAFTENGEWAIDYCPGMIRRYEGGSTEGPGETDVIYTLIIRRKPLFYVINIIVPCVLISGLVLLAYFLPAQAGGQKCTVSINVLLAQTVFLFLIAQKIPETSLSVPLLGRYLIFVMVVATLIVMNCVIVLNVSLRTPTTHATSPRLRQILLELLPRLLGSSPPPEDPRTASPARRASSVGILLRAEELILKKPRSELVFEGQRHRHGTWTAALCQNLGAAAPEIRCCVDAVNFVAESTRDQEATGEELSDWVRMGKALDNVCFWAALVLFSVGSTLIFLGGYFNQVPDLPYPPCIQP

CC[C@H](C)[C@@H]1NC(=O)[C@H](CC(=O)O)NC(=O)[C@H](CCC(N)=O)NC(=O)[C@H](CC(N)=O)NC(=O)[C@H](CC(N)=O)NC(=O)CNC(=O)[C@H](C)NC(=O)[C@@H]2CSSC[C@H](NC(=O)CN)C(=O)N[C@@H](CSSC[C@@H](C(N)=O)NC1=O)C(=O)N[C@@H](CO)C(=O)N[C@@H](Cc1c[nH]cn1)C(=O)N1CCC[C@H]1C(=O)N[C@@H](C)C(=O)N2 [LvIF]
inhibition at 10 μM (Mα1β1δε, 10 μM, 5 min, n = 3): 8.7 ± 3.8%
IC50 (mα1β1δε, 10 μM ACh, 5 min incubation, less than 50% blocking at 10 μM): > 10 µM
